{"source": "PubChem BioAssay AID1259414, Drosophila RNAi Screening Center | 2018", "assay": "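Genome-wide screen for host control of endosymbiont load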 (primary screen)", "system": "Drosophila JW18 cells infected with Wolbachia", "knock-down reagent": "long dsRNA against Drosophila genes, 0.25 µg dsRNA per well of a 384-well plate", "duration": "5 days", "conditions": "cells persistently infected with Wolbachia before knock-down; no added drug", "measured": "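Imaged fluorescence in situ signal for Wolbachia 23S rRNA per DAPI-counted host cell, given as a robust z-score within each plate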", "scale": "Wolbachia per cell robust z: higher = more Wolbachia per host cell than the plate typical", "active means": "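Hit when robust z is 1.5 or more, or -1.5 or less, in at least two of three replicates; excludes dsRNAs with several or no targets, genes not expressed in JW18 and well A1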", "note": "The screen tested about 24,000 reagents; below is a random part of those with a known target gene and a result. In the full data, about 1,210 (5%) were called active. 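Inactive calls also include excluded dsRNAs with several or no targets, genes unexpressed in JW18, and well A1, regardless of score.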 The numbers tell different reagents against one gene apart. Names joined by + are all predicted targets of the reagent. Reagent sequences are not shown."}
{"target gene": "Cyt-b5-r (GeneID 35008)", "reagent": 1, "Wolbachia per cell robust z, rep 1": -0.464, "Wolbachia per cell robust z, rep 2": -3.98, "Wolbachia per cell robust z, rep 3": -0.317, "Call": "inactive"}
{"target gene": "Sfp24Bd (GeneID 8674028)", "reagent": 1, "Wolbachia per cell robust z, rep 1": -3.41, "Wolbachia per cell robust z, rep 2": -0.356, "Wolbachia per cell robust z, rep 3": -1.56, "Call": "inactive"}
{"target gene": "pgc + T3dh", "reagent": 1, "Wolbachia per cell robust z, rep 1": 0.16, "Wolbachia per cell robust z, rep 2": -0.258, "Wolbachia per cell robust z, rep 3": 0.295, "Call": "inactive"}
{"target gene": "knrl (GeneID 40285)", "reagent": 1, "Wolbachia per cell robust z, rep 1": 1.33, "Wolbachia per cell robust z, rep 2": 0.248, "Wolbachia per cell robust z, rep 3": 0.771, "Call": "inactive"}
{"target gene": "knrl (GeneID 40285)", "reagent": 2, "Wolbachia per cell robust z, rep 1": -1.21, "Wolbachia per cell robust z, rep 2": -1.52, "Wolbachia per cell robust z, rep 3": -1.06, "Call": "inactive"}
{"target gene": "CG10514 (GeneID 43052)", "reagent": 1, "Wolbachia per cell robust z, rep 1": -2.49, "Wolbachia per cell robust z, rep 2": 0.442, "Wolbachia per cell robust z, rep 3": -0.586, "Call": "inactive"}
{"target gene": "CG10514 (GeneID 43052)", "reagent": 2, "Wolbachia per cell robust z, rep 1": 0.116, "Wolbachia per cell robust z, rep 2": 0.99, "Wolbachia per cell robust z, rep 3": 0.938, "Call": "inactive"}
{"target gene": "CG13771 (GeneID 33933)", "reagent": 1, "Wolbachia per cell robust z, rep 1": 0.677, "Wolbachia per cell robust z, rep 2": 0.221, "Wolbachia per cell robust z, rep 3": 0.877, "Call": "inactive"}
{"target gene": "CG14015 (GeneID 33780)", "reagent": 1, "Wolbachia per cell robust z, rep 1": 0.674, "Wolbachia per cell robust z, rep 2": 1.63, "Wolbachia per cell robust z, rep 3": -0.107, "Call": "inactive"}
{"target gene": "CG14015 (GeneID 33780)", "reagent": 2, "Wolbachia per cell robust z, rep 1": 0.932, "Wolbachia per cell robust z, rep 2": 0.535, "Wolbachia per cell robust z, rep 3": -0.88, "Call": "inactive"}
{"target gene": "CG6231 (GeneID 42339)", "reagent": 1, "Wolbachia per cell robust z, rep 1": -1.18, "Wolbachia per cell robust z, rep 2": -0.364, "Wolbachia per cell robust z, rep 3": -2.57, "Call": "inactive"}
{"target gene": "nero (GeneID 43740)", "reagent": 1, "Wolbachia per cell robust z, rep 1": -0.466, "Wolbachia per cell robust z, rep 2": -8.01, "Wolbachia per cell robust z, rep 3": 0.051, "Call": "inactive"}
